A mixed list of measured activities; the numbers were collected in NIAID ChemDB.

Shared fields: growth or infection tests; organism: Plasmodium falciparum

ECn is the concentration giving n% inhibition of infection, replication or growth. Neighbouring rows are from separate reports. Blank or dashed fields: not listed here.

{"compound": "CCCCC[C@@H]1C[C@@H]2CCC[C@@H]3C[C@H](CCCCC)NC(=N1)N32", "read-out": "EC50", "strain": "D6", "method": "LDH", "value": "2.25 µM"}
{"compound": "CCCCCCCCCCCC(=O)NC(CCCC[NH3+])C(=O)NCCCC(=O)NC(CCCC[NH3+])C(N)=O", "read-out": "EC50", "strain": "NF54", "method": "hypoxanthine uptake", "value": "2.1 µM"}
{"compound": "CC1CC2CCC3CC(CCc4cccc(Cl)c4)N=C(N1)N32", "read-out": "EC50", "strain": "W2", "method": "LDH", "value": "7.25 µM"}
{"compound": "CC[C@H]1OC(=O)[C@H](C)[C@@H](OC2C[C@@](C)(OC)[C@@H](O)[C@H](C)O2)[C@H](C)[C@@H](OC2O[C@H](C)C[C@H](N(C)C)[C@H]2O)[C@](C)(OC2C[C@H](N)[C@H](O)[C@H](C)O2)C[C@@H](C)C(=O)[C@H](C)[C@@H](O)[C@]1(C)O", "read-out": "EC50", "cells": "RBC", "strain": "3D7", "method": "fluorescence", "setting": "120 h", "value": "15.2 µM"}
{"compound": "NCCCC[C@H](N)C(=O)N(O)C1C[C@@H](C(N)=O)N(C(=O)c2ccc(-c3cccc([N+](=O)[O-])c3)o2)C1", "read-out": "EC50", "cells": "Red blood cells", "strain": "3D7", "method": "flow cytometry", "setting": "96 h", "value": "83.2 µM"}
{"compound": "Cc1[nH]nc2c1C(c1cc(C#N)cc(-c3ccc(C(=O)O)cc3)c1)(C(C)C)C(C#N)=C(N)O2", "read-out": "EC50", "strain": "NF54", "method": "radiometric", "value": "0.34 µM"}
{"compound": "C=CCCC1CC2CCCC3CC(C)NC(=N1)N23", "read-out": "EC50", "strain": "D6", "method": "LDH", "value": "19.27 µM"}
{"compound": "O=C(Nc1cc(C(F)(F)F)ccc1-n1cncn1)C1(c2cccc(C(F)(F)F)c2)CC1", "read-out": "EC50", "strain": "HB3", "value": "0.005 µM"}
{"compound": "COc1cc(C2=NCCN2)ccc1OCCCCCOc1ccc(C2=NCCN2)cc1OC", "read-out": "EC50", "strain": "W2", "method": "hypoxanthine uptake", "value": "0.066 µM"}
{"compound": "CC(C)CC(=O)O[C@@H]1[C@@H](OC(=O)CC(C)C)[C@H](O[C@]2(CO)O[C@H](CO)[C@@H](OC(=O)CC(C)C)[C@@H]2OC(=O)CC(C)C)O[C@H](CO)[C@H]1OC(=O)CC(C)C", "read-out": "EC50", "cells": "Red blood cells", "strain": "HB3", "method": "SYBR Green", "value": "1.623 µg/mL"}
{"compound": "Cc1ccc(CCn2c(N)c(-c3nc4ccccc4[nH]3)c3nc(C#N)c(C#N)nc32)cc1", "read-out": "EC50", "cells": "Erythrocytes", "strain": "NF54", "method": "hypoxanthine uptake / radiometric", "value": "0.26 µM"}
{"compound": "CCN(CC)CCN1C(=O)c2ccccc2NC1c1ccc(OC)c(COc2ccc(F)cc2)c1", "read-out": "EC50", "strain": "3D7", "method": "luciferase", "value": ">20 µM"}
{"compound": "COC(=O)c1ccc(-c2cc(C#N)cc(C3(C(C)C)C(C#N)=C(N)Oc4n[nH]c(C)c43)c2)o1", "read-out": "EC50", "strain": "NF54", "method": "radiometric", "value": "0.14 µM"}
{"compound": "N=C(N)c1ccc(OCCCCCOc2ccc(C(=N)N)cc2Cl)c(Cl)c1", "read-out": "EC50", "strain": "W2", "method": "hypoxanthine uptake", "value": "0.129 µM"}
{"compound": "CCN(CC)CCCC(C)Nc1ccnc2cc(Cl)ccc12", "read-out": "EC50", "changes": "KAE609-resistant pfatp4 D1247Y", "strain": "KAE609R-3", "method": "SYBR Green / fluorescence", "value": "0.013 µM"}
{"compound": "COc1ccc(OC)c(/C=C/C(=O)c2ccc(N3CCOCC3)cc2)c1", "read-out": "EC50", "value": "3.26 µg/mL"}
{"compound": "CCCCCCCC(=O)NC(CCCC[NH3+])C(=O)NCCCCCCCC(=O)NC(CCCC[NH3+])C(=O)NCCCCCCCC(=O)NC(CCCC[NH3+])C(=O)NCCCCCCCC(=O)NC(CCCC[NH3+])C(=O)NCCCCCCCC(=O)NC(CCCC[NH3+])C(=O)NCCCCCCCC(=O)NC(CCCC[NH3+])C(N)=O", "read-out": "EC50", "strain": "FCR3", "method": "hypoxanthine uptake", "value": "44 µM"}
{"compound": "Cc1[nH]nc2c1C(c1cc(Br)cc(C#N)c1)(C(C)C)C(C#N)=C(N)O2", "read-out": "EC50", "strain": "NF54", "method": "radiometric", "value": "0.65 µM"}
{"compound": "COc1cc(/C=C/C(=O)c2ccc(-n3nnc4ccccc43)cc2)cc(OC)c1OC", "read-out": "EC50", "value": "8.15 µg/mL"}
{"compound": "N=C(N)c1ccc(OCCCCOc2ccc(C(=N)N)cc2)cc1", "read-out": "EC50", "strain": "W2", "method": "hypoxanthine uptake", "value": "0.26 µM"}
{"compound": "C=C[C@]1(C)C[C@H](OC(=O)C(=C)CO)[C@H]2C(=C)C(=C)C[C@@H]2C1C(=C)CO", "read-out": "EC50", "cells": "Red blood cells", "strain": "HB3", "method": "SYBR Green", "value": "0.472 µg/mL"}
{"compound": "COc1ccc(/C=C/C(=O)c2ccc(N3CCCCC3)cc2)c(OC)c1", "read-out": "EC50", "value": "7.68 µg/mL"}
{"compound": "NCCCCNc1ccnc2cc(Cl)ccc12", "read-out": "EC50", "strain": "D10", "method": "LDH", "value": "2.15 µM"}
{"compound": "O=C(Nc1cc(C(F)(F)F)ccc1-n1cncn1)C1(c2ccccc2)CC1", "read-out": "EC50", "strain": "3D7A", "value": "0.103 µM"}
{"compound": "Clc1ccc2c(NCCCCN3CCN(C(c4ccccc4)c4ccccc4)CC3)ccnc2c1", "read-out": "EC50", "strain": "D6", "method": "SYBR Green / fluorescence", "value": "0.0013 µM"}
{"compound": "CCN(CC)CCCC(C)n1c(N)c(-c2nc3ccccc3[nH]2)c2nc(C#N)c(C#N)nc21", "read-out": "EC50", "cells": "Erythrocytes", "strain": "K1", "method": "hypoxanthine uptake / radiometric", "value": "0.04 µM"}
{"compound": "CCOC(=O)COc1cccc(-c2cc(Cl)cc(C3(C4CCC4)C(C#N)=C(N)Oc4n[nH]c(C)c43)c2)c1", "read-out": "EC50", "strain": "NF54", "method": "radiometric", "value": "0.14 µM"}
{"compound": "C#CCC[C@@H]1C[C@@H]2CC[C@@H]3C[C@H](CCC#C)NC(=N1)N32", "read-out": "EC50", "strain": "D6", "method": "LDH", "value": "9.66 µM"}
{"compound": "CCN(CC)CCCC(C)Nc1ccnc2cc(Cl)ccc12", "read-out": "EC50", "changes": "MDR", "strain": "Dd2", "method": "absorbance", "value": "0.13 µM"}
{"compound": "OCCNc1nc(NCCCNc2ccnc3cc(Cl)ccc23)nc(N2CCOCC2)n1", "read-out": "EC50", "strain": "W2", "value": "2.06 µM"}
{"compound": "N=C(N)c1ccc(OCCOc2ccc(C(=N)N)cc2[N+](=O)[O-])c([N+](=O)[O-])c1", "read-out": "EC50", "strain": "W2", "method": "hypoxanthine uptake", "value": "0.768 µM"}
{"compound": "CCCCCC(CCCCCC=O)NC(CCCC[NH3+])C(=O)NCCCCCCCCCCCC(=O)NC(CCCC[NH3+])C(=O)NC(C=O)CCCC[NH3+]", "read-out": "EC50", "strain": "NF54", "method": "hypoxanthine uptake", "value": "1.2 µM"}
{"compound": "CCCCCCCCCCCCC#CC(=O)O", "read-out": "EC50", "strain": "K1", "value": "121.7 µM"}
{"compound": "C[C@H]1Cc2c([nH]c3cc(F)c(F)cc23)[C@@]2(N1)C(=O)Nc1ccc(Cl)cc12", "read-out": "EC50", "changes": "Multidrug-resistant", "strain": "Dd2 (EF1)", "method": "SYBR Green / fluorescence", "value": "0.000428 µM"}
{"compound": "COc1cc2nc(N3CCCN(C)CC3)nc(NC3CCN(Cc4ccccc4)CC3)c2cc1OC", "read-out": "EC50", "strain": "W2", "method": "fluorescence", "value": "0.052 µM"}
{"compound": "CCCCN1C(=O)c2ccccc2NC1c1ccc(Cl)cc1", "read-out": "EC50", "strain": "3D7", "method": "luciferase", "value": ">20 µM"}
{"compound": "CC(C)CCC[C@@H]1C[C@@H]2CCC[C@@H]3C[C@H](CCCC(C)C)NC(=N1)N32", "read-out": "EC50", "strain": "D6", "method": "LDH", "value": "1.52 µM"}
{"compound": "OCCCNc1nc(NCCCCNc2ccnc3cc(Cl)ccc23)nc(N2CCCCC2)n1", "read-out": "EC50", "strain": "W2", "value": "1.17 µM"}
{"compound": "N#Cc1nc2c(-c3nc4ccccc4[nH]3)c(N)n(CCc3ccccc3F)c2nc1C#N", "read-out": "EC50", "cells": "Erythrocytes", "strain": "NF54", "method": "hypoxanthine uptake / radiometric", "value": "0.41 µM"}
{"compound": "Clc1ccc2c(NCCCNc3nc(Nc4ccccc4)nc(N4CCOCC4)n3)ccnc2c1", "read-out": "EC50", "strain": "D6", "value": "0.44 µM"}
{"compound": "NCCSC[C@H](N)C(=O)N(O)C1C[C@@H](C(N)=O)N(C(=O)c2ccc(-c3cccc([N+](=O)[O-])c3)o2)C1", "read-out": "EC50", "cells": "Red blood cells", "strain": "3D7", "method": "flow cytometry", "setting": "96 h", "value": "38.4 µM"}
{"compound": "COc1ccc(/C=C/C(=O)c2ccc(N3CCCC3)cc2)cc1OC", "read-out": "EC50", "value": "2.91 µg/mL"}
{"compound": "CCN(CC)CCN1C(=O)c2ccccc2NC1c1ccc(OC)c(COc2ccc(NC(C)=O)cc2)c1", "read-out": "EC50", "strain": "3D7", "method": "luciferase", "value": ">10 µM"}
{"compound": "Cc1[nH]nc2c1C(c1cc(C#N)cc(-c3ccc(C(=O)NCCCN4CCN(C)CC4)s3)c1)(C(C)C)C(C#N)=C(N)O2", "read-out": "EC50", "strain": "TM90C2B", "method": "radiometric", "value": "1.33 µM"}
{"compound": "CCCCCC(=O)NCCCCCC(=O)NC(CCCC[NH3+])C(=O)CCCCCC(=O)NCCCCCC(=O)NC(CCCC[NH3+])C(N)=O", "read-out": "EC50", "strain": "NF54", "method": "hypoxanthine uptake", "value": ">10 µM"}
{"compound": "CCOC(=O)CCCN(C)c1cc(C#N)cc(C2(C3CCC3)C(C#N)=C(N)Oc3n[nH]c(C)c32)c1", "read-out": "EC50", "strain": "NF54", "method": "radiometric", "value": "0.92 µM"}
{"compound": "c1ccc(CC[C@@H]2C[C@@H]3CCC[C@@H]4C[C@H](CCc5ccccc5)NC(=N2)N43)cc1", "read-out": "EC50", "strain": "D6", "method": "LDH", "value": "6.2 µM"}
{"compound": "Cn1nc(C(F)(F)F)c(-c2ccc(Br)cc2)c1NC(=O)Nc1ccc(F)cc1F", "read-out": "EC50", "changes": "Multidrug-resistant", "strain": "Dd2 (EF1)", "method": "SYBR Green / fluorescence", "value": "0.1841 µM"}
{"compound": "CCN(CC)CCN1C(=O)c2ccccc2NC1c1ccc(Br)cc1", "read-out": "EC50", "strain": "3D7", "method": "luciferase", "value": "0.34 µM"}
{"compound": "CC[C@H]1OC(=O)[C@H](C)[C@@H](OC2C[C@@](C)(OC)[C@@H](O)[C@H](C)O2)[C@H](C)[C@@H](OC2O[C@H](C)C[C@H](N(C)C)[C@H]2O)[C@](C)(OC2C[C@@H](O)[C@H](O)[C@H](C)O2)C[C@@H](C)C(=O)[C@H](C)[C@@H](O)[C@]1(C)O", "read-out": "EC50", "cells": "RBC", "strain": "3D7", "method": "fluorescence", "setting": "120 h", "value": "10.1 µM"}
{"compound": "CC1CC2CCC3CC(CCc4ccc(F)cc4)N=C(N1)N32", "read-out": "EC50", "strain": "D6", "method": "LDH", "value": "15.76 µM"}
{"compound": "CCN(CC)CCCNC(=O)c1ccc(-c2cc(C#N)cc(C3(C(C)C)C(C#N)=C(N)Oc4n[nH]c(C)c43)c2)s1", "read-out": "EC50", "strain": "K1", "method": "radiometric", "value": "1.64 µM"}
{"compound": "CN[C@@H](CC1=CN=c2c(O)c3c(c(O)c21)=NC=CS3(=O)=O)C(=O)O", "read-out": "MIC", "strain": "3D7", "value": "0.279 µM"}
{"compound": "CCc1ccc(Nc2nc(NCCCNc3ccnc4cc(Cl)ccc34)nc(N3CCOCC3)n2)cc1", "read-out": "EC50", "strain": "W2", "value": "0.42 µM"}
{"compound": "COC(=O)CCc1cccc(-c2cc(Cl)cc(C3(C4CCC4)C(C#N)=C(N)Oc4n[nH]c(C)c43)c2)c1", "read-out": "EC50", "strain": "NF54", "method": "radiometric", "value": "0.08 µM"}
{"compound": "CCCCCCCCCC1CC2CCC3CC(C)NC(=N1)N23", "read-out": "EC50", "strain": "D6", "method": "LDH", "value": "4.59 µM"}
{"compound": "Cc1[nH]nc2c1C(c1cc(C#N)cc(-c3ccc(C(=O)N(C)C)s3)c1)(C(C)C)C(C#N)=C(N)O2", "read-out": "EC50", "strain": "K1", "method": "radiometric", "value": "0.13 µM"}
{"compound": "N#Cc1nc2c(-c3nc4ccccc4[nH]3)c(N)n(Cc3ccc(O)cc3)c2nc1C#N", "read-out": "EC50", "cells": "Erythrocytes", "strain": "NF54", "method": "hypoxanthine uptake / radiometric", "value": "0.29 µM"}

6 of the rows above, restated:

compound,read-out,cells,changes,strain,method,setting,value
COc1cc(C2=NCCN2)ccc1OCCCCCOc1ccc(C2=NCCN2)cc1OC,EC50,,,W2,hypoxanthine uptake,,0.066 µM
CCc1ccc(Nc2nc(NCCCNc3ccnc4cc(Cl)ccc34)nc(N3CCOCC3)n2)cc1,EC50,,,W2,,,0.42 µM
COc1ccc(/C=C/C(=O)c2ccc(N3CCCCC3)cc2)c(OC)c1,EC50,,,,,,7.68 µg/mL
CCCCN1C(=O)c2ccccc2NC1c1ccc(Cl)cc1,EC50,,,3D7,luciferase,,>20 µM
C=C[C@]1(C)C[C@H](OC(=O)C(=C)CO)[C@H]2C(=C)C(=C)C[C@@H]2C1C(=C)CO,EC50,Red blood cells,,HB3,SYBR Green,,0.472 µg/mL
CCCCCCCCCCCC(=O)NC(CCCC[NH3+])C(=O)NCCCC(=O)NC(CCCC[NH3+])C(N)=O,EC50,,,NF54,hypoxanthine uptake,,2.1 µM